Pooled drug test results. Numbers come from NIAID ChemDB, via PubChem.

Shared fields: whole-cell or culture tests; agent: HIV-2; method: syncytia; measure: EC50

ECn: concentration that inhibits the pathogen or its effect by n%. Rows are shuffled and stem from different studies. Blank or dashed fields: not listed here.

compound	cell line	strain	setting	result
Nc1nc(N)c(Br)c(OCCOCP(=O)(O)O)n1	CEM	ROD		3.2 µg/mL
Cc1cn([C@H]2C[C@H](N=[N+]=[N-])[C@@H](CN3C(=O)c4c(Br)c(Br)c(Br)c(Br)c4C3=O)O2)c(=O)[nH]c1=O	CEM + CEM TK-	ROD		>140 µM
O=c1[nH]cccc1O	CEM	ROD		22 µg/mL
Cc1cn([C@H]2C[C@H](N=[N+]=[N-])[C@@H](CN3C(=O)c4c(Cl)c(Cl)c(Cl)c(Cl)c4C3=O)O2)c(=O)[nH]c1=O	CEM	ROD		14.1 µM
CCCOC(=O)c1cc(O)c(O)c(O)c1	CEM	ROD		4 µg/mL
Cc1cn([C@@H]2O[C@H](CO[Si](C)(C)C(C)(C)C)[C@@]3(OS(=O)(=O)C=C3N)[C@H]2O[Si](C)(C)C(C)(C)C)c(=O)[nH]c1=O	CEM	ROD		>4 µg/mL
C[C@H](Cn1cnc2c(N)ncnc21)OCP(=O)(O)O	CEM	ROD		2.6 µM
Cc1cn([C@@H]2O[C@@H](COC(=O)c3ccccc3)C3(OS(=O)(=O)C=C3N)C2O[Si](C)(C)C(C)(C)C)c(=O)[nH]c1=O	CEM	ROD		>100 µg/mL
CC(C)NCC(O)c1ccc(O)c(O)c1	CEM	ROD		22 µg/mL
Cc1cn([C@H]2C[C@H](F)[C@@H](C(C)O)O2)c(=O)[nH]c1=O	CEM	ROD		7 ± 4.2 µg/mL
CCc1cn([C@@H]2O[C@H](CO[Si](C)(C)C(C)(C)C)[C@@H](O)[C@H]2O[Si](C)(C)C(C)(C)C)c(=O)n(CC(=O)O)c1=O	CEM	ROD		>10 µM
Nc1nc(N)c(Br)c(OCCOCP(=O)(O)O)n1	CEM	ROD		3.3 µg/mL
O=C(CC[C@H](NC(=O)OCc1ccccc1)C(=O)O)Nc1ccc(B(O)O)cc1	CEM	ROD		>50 µM
Nc1nc(N)c(C=O)c(OCCOCP(=O)(O)O)n1	CEM	ROD		2.7 µM
COC(=O)[C@H](C)NP(=O)(OC[C@@H]1C=C[C@H](n2cc(C)c(=O)[nH]c2=O)O1)Oc1ccccc1	CEM	ROD	4 d	0.2 µM
COc1ccc(B(O)O)cc1C=O	CEM	ROD		>10 µM
O=c1[nH]cnc2c1ncn2[C@H]1CC[C@@H](CO)O1	CEM	ROD		1.8 µM
CC[C@@]1(O)C(=O)OCc2c1cc1n(c2=O)Cc2cc3cc(O)ccc3nc2-1	C8166	ROD		0.025 µg/mL
Cc1cn([C@H]2C[C@H](N=[N+]=[N-])[C@@H](CN3C(=S)c4ccccc4C3=S)O2)c(=O)[nH]c1=O	CEM + CEM TK-	ROD		>8 µM
COC(=O)[C@H](C)NP(=O)(OC[C@@H]1O[C@H](n2ccc(N)nc2=O)CS1)Oc1ccccc1	CEM + CEM TK-	ROD		5.5 µM
Cc1cn([C@@H]2O[C@H](CO[Si](C)(C)C(C)(C)C)[C@@H](O)[C@H]2O[Si](C)(C)C(C)(C)C)c(=O)n(CC(=O)ON)c1=O	CEM	ROD		>2 µM
Cc1cn([C@H]2C[C@H](N(C)O)[C@@H](CO)O2)c(=O)[nH]c1=O	CEM	ROD		5.3 µg/mL
Cc1cn([C@@H]2O[C@H](CO[Si](C)(C)C(C)(C)C)[C@@H](O)[C@H]2O[Si](C)(C)C(C)(C)C)c(=O)n(CCO)c1=O	CEM	ROD		>50 µM
Nc1ccn([C@H]2CC[C@@H](CO)O2)c(=O)n1	CEM + CEM TK-	ROD		0.03 µM
C1CNCCNCC(CCOCCOCCC2CNCCNCCCNCCNC2)CNCCNC1	MOLT-4	GH-1		0.389 µM
Nc1nc(N)c(C=O)c(OCCOCP(=O)(O)O)n1	CEM	ROD		0.83 µg/mL
Nc1nc(NC2CC2)c2ncn([C@H]3C=C[C@@H](COP4(=O)OCc5cc(Cl)ccc5O4)C3)c2n1	CEM	ROD		2.5 µM
Nc1cc(OCCOCP(=O)(O)O)nc(N)n1	CEM	ROD		0.57 µg/mL
Cc1cn([C@H]2C=C[C@@H](CO)O2)c(=O)[nH]c1=O	CEM	ROD		0.3 µM
CCCCCCCCCCCCCCCCOP(=O)(O)OC[C@H]1O[C@@H](n2cc(C)c(=O)[nH]c2=O)C[C@@H]1N=[N+]=[N-]	CEM + CEM/O	ROD		0.17 µM
COC(=O)C(C)(C)NP(=O)(OC[C@@H]1C=C[C@H](n2cc(C)c(=O)[nH]c2=O)O1)Oc1ccccc1	CEM + CEM TK-	ROD Laboratory clade B		0.06 µM
c1cc(CN2CCNCCNCCNCC2)cc(CN2CCNCCNCCNCC2)c1	MT-4	GH-1		0.021 µM
Nc1ncnc2c1ncn2[C@@H]1C[C@H](O)[C@@H](O)[C@H]1O	CEM	ROD		>0.16 µg/mL
Cc1cn([C@@H]2O[C@H](C)C3(OS(=O)(=O)C=C3N)[C@H]2O[Si](C)(C)C(C)(C)C)c(=O)[nH]c1=O	CEM	ROD		>20 µg/mL
Cc1cn([C@H]2C=C[C@@H](COP3(=O)OCc4cccc(CCC(=O)OCc5ccccc5)c4O3)O2)c(=O)[nH]c1=O	CEM + CEM TK-	LAV-2		2.89 µM
Nc1nc(N)c(Cl)c(OCCOCP(=O)(O)O)n1	CEM	ROD		1.3 µg/mL
Cc1cn([C@@H]2O[C@H](CO[Si](c3ccccc3)(c3ccccc3)C(C)(C)C)C3(OS(=O)(=O)C=C3N)[C@H]2O[Si](c2ccccc2)(c2ccccc2)C(C)(C)C)c(=O)[nH]c1=O	MT-4	ROD		>150 µM
CCCCCCCCCCCCCCOCCOP(=O)(O)OC[C@H]1O[C@@H](n2cc(C)c(=O)[nH]c2=O)C[C@@H]1N=[N+]=[N-]	CEM + CEM/O	ROD		0.144 µM
OCc1ccccc1B(O)O	CEM	ROD		≥50 µM
Cc1cccc2c1OP(=O)(OC[C@@H]1C=C[C@H](n3cc(C)c(=O)[nH]c3=O)O1)OC2	CEM + CEM TK-	ROD		0.06 µM
NCC(O)c1ccc(O)c(O)c1	CEM	ROD		13 µg/mL
CO[Si](OC[C@H]1O[C@@H](n2cc(C)c(=O)n(C)c2=O)[C@H](O[Si](C)(C)C(C)(C)C)C12OS(=O)(=O)C=C2N)(c1ccccc1)C(C)(C)C	MT-4	ROD		>6.6 µM
N#Cc1c(N)nc(N)nc1OCCOCP(=O)(O)O	CEM	ROD		4.5 µM
Cc1cn([C@H]2C=C[C@@H](COP3(=O)OCc4cccc(-c5cccc6c5OC(C)(C)OC6)c4O3)O2)c(=O)[nH]c1=O	CEM	LAV-2		0.4 µM
Cc1cn([C@@H]2O[C@H](CO[Si](C)(C)C(C)(C)C)[C@@]3(OS(=O)(=O)C=C3N)[C@H]2O[Si](C)(C)C(C)(C)C)c(=O)n(CC(=O)N[C@@H](CCC(=O)O)C(=O)O)c1=O	CEM	ROD		105 µM
Cc1cn([C@@H]2O[C@H](CO[Si](C)(C)C(C)(C)C)C3(OC(=O)N=C3N)[C@H]2O[Si](C)(C)C(C)(C)C)c(=O)[nH]c1=O	CEM	ROD		>35 µM
Cc1cn([C@@H]2O[C@H](CCC(C)C)C3(OS(=O)(=O)C=C3N)[C@H]2OC(=O)c2ccccc2)c(=O)[nH]c1=O	CEM	ROD		>20 µg/mL
Cc1cn([C@H]2C[C@H](N=[N+]=[N-])[C@@H](CN3C(=O)c4ccc(C(=O)OCC56CC7CC(CC(C7)C5)C6)cc4C3=O)O2)c(=O)[nH]c1=O	CEM + CEM TK-	ROD		>160 µM
Cc1ccc(S(=O)(=O)OC[C@H]2O[C@@H](n3cc(C)c(=O)n(C)c3=O)[C@H](O[Si](C)(C)C(C)(C)C)C23OS(=O)(=O)C=C3N)cc1	MT-4	ROD		>30 µM
O=Cc1ccccc1B(O)O	CEM	ROD		≥50 µM
Nc1nc(NC2CC2)c2ncn([C@H]3C=C[C@@H](CO)C3)c2n1	CEM	ROD		6 µM
CN=C1N(C)C(=O)OC12[C@@H](CO[Si](C)(C)C(C)(C)C)O[C@@H](n1cc(C)c(=O)n(C)c1=O)[C@@H]2O[Si](C)(C)C(C)(C)C	CEM	ROD		>35 µM
Cc1cn([C@@H]2O[C@H](CO[Si](C)(C)C(C)(C)C)[C@@H](O)[C@H]2O[Si](C)(C)C(C)(C)C)c(=O)n(CC#N)c1=O	CEM	ROD		>10 µM
Cc1cn([C@@H]2O[C@H](COCc3ccccc3)C3(OS(=O)(=O)C=C3N)[C@H]2O[Si](C)(C)C(C)(C)C)c(=O)[nH]c1=O	MT-4	ROD		>6 µM
Nc1ncnc2c1ncn2CCOCP(=O)(O)O	CEM			10 µM
CC(=O)NC1=CS(=O)(=O)OC12[C@@H](COCc1ccccc1)O[C@@H](n1cc(C)c(=O)[nH]c1=O)[C@@H]2OC(C)=O	CEM	ROD		>160 µM
CCCCCCCCCCCCOP(=O)(O)OC[C@H]1O[C@@H](n2cc(C)c(=O)[nH]c2=O)C[C@@H]1N=[N+]=[N-]	CEM + CEM TK-	ROD		>40 µM
Nc1ncnc2c1ncn2CCOCP(=O)(O)O	CEM	ROD		1.7 µg/mL
CC(=O)OCOC(=O)CCc1ccc2c(c1)COP(=O)(OC[C@@H]1C=C[C@H](n3cc(C)c(=O)[nH]c3=O)O1)O2	CEM + CEM/O	LAV-2		0.53 µM
O=C(O)CCc1ccc(B(O)O)cc1	CEM	ROD		>250 µM
Cc1cn([C@@H]2O[C@H](CO[Si](C)(C)C(C)(C)C)C3(OS(=O)(=O)C=C3N)[C@H]2O[Si](C)(C)C(C)(C)C)c(=O)n(CC(=O)N[C@@H](C)C(=O)OCc2ccccc2)c1=O	CEM	ROD		>250 µM
Nc1nc2c(ncn2[C@H]2C=C[C@@H](CO)C2)c(=O)[nH]1	CEM	ROD		0.17 µM
Cc1cn([C@@H]2O[C@H](CO[Si](c3ccccc3)(c3ccccc3)C(C)(C)C)C3(OS(=O)(=O)C=C3N)[C@H]2O[Si](C)(C)C(C)(C)C)c(=O)n(C)c1=O	MT-4	ROD		>30 µM
CCN(CC)C(=O)c1ccc(B(O)O)cc1	CEM	ROD		>250 µM
Cc1cn([C@H]2C[C@H](F)[C@@H](CO)O2)c(=O)[nH]c1=O	CEM	ROD		0.001 µg/mL
CNC(C)[C@H]1O[C@H](O[C@@H]2[C@@H](O)[C@H](O[C@@H]3OC[C@@](C)(O)[C@@H](NC)[C@@H]3O)[C@@H](NC(=O)[C@@H](N)CCCN=C(N)N)C[C@H]2NC(=O)[C@@H](N)CCCN=C(N)N)[C@H](NC(=O)[C@@H](N)CCCN=C(N)N)[C@@H](O)[C@@H]1O	MT-2	CLADE C		4.5 µM
COC(=O)C(Cc1c[nH]c2ccccc12)NP(=O)(OC[C@@H]1C=C[C@H](n2cc(C)c(=O)[nH]c2=O)O1)Oc1ccccc1	CEM + CEM TK-	ROD		1.3 µM
COC(=O)[C@H](C)NP(=O)(OC[C@@H]1C=C[C@H](n2cc(C)c(=O)[nH]c2=O)O1)Oc1ccccc1	CEM	ROD		0.1 µM
COC(=O)Cn1c(=O)c(C)cn([C@H]2C[C@H](N=[N+]=[N-])[C@@H](CO[Si](C)(C)C(C)(C)C)O2)c1=O	CEM	ROD		>10 µM
Cc1cn([C@@H]2O[C@H](CO[Si](C)(C)C(C)(C)C)C3(OS(=O)(=O)C=C3N)[C@H]2O)c(=O)[nH]c1=O	CEM	ROD		>40 µM
OB(O)c1ccc(Br)cc1	CEM	ROD		>50 µM
Cc1cn([C@H]2C[C@H](N=[N+]=[N-])[C@@H](CN3C(=O)c4ccccc4C3=O)O2)c(=O)[nH]c1=O	CEM	ROD		1.7 µM
Cc1cccc2c1OP(=O)(OCCOCn1cnc3c(=O)[nH]c(N)nc31)OC2	CEM	ROD		>50 µM